Experiments:
Format in all cases: functional
[1] = test system: Pseudomonas aeruginosa; experiment: Induction of mexY in Pseudomonas aeruginosa 1956 clinical isolate harboring nfxB C113T mutant gene at 0.5 times MIC after 4 hrs relative to control
[2] = test system: Pseudomonas aeruginosa; experiment: Induction of mexY in Pseudomonas aeruginosa 1956 clinical isolate harboring pNF225 at 0.5 times MIC after 4 hrs relative to control
[3] = test system: Pseudomonas aeruginosa; experiment: Induction of mexY in Pseudomonas aeruginosa EryR clinical isolate harboring pNF225 at 0.5 times MIC after 4 hrs relative to control
[4] = test system: Pseudomonas aeruginosa; experiment: Induction of mexY in Pseudomonas aeruginosa 2126 clinical isolate harboring nfxB deltaC114-T130 mutant gene at 0.5 times MIC after 4 hrs relative to control
[5] = test system: Pseudomonas aeruginosa; experiment: Induction of mexY in Pseudomonas aeruginosa 2126 clinical isolate harboring pNF225 at 0.5 times MIC after 4 hrs relative to control
[6] = test system: Pseudomonas aeruginosa; experiment: Induction of mexY in Pseudomonas aeruginosa PAO1 clinical isolate harboring nfxB gene at 0.5 times MIC after 4 hrs relative to control
[7] = test system: Pseudomonas aeruginosa; experiment: Induction of mexY in Pseudomonas aeruginosa 2439 clinical isolate harboring pNF225 at 0.5 times MIC after 4 hrs relative to control
[8] = test system: Pseudomonas aeruginosa; experiment: Induction of mexY in Pseudomonas aeruginosa EryR clinical isolate harboring nfxB C199T mutant gene at 0.5 times MIC after 4 hrs relative to control
[9] = test system: Pseudomonas aeruginosa; experiment: Induction of mexY in Pseudomonas aeruginosa 2439 clinical isolate harboring nfxB deltaG177-A178 mutant gene at 0.5 times MIC after 4 hrs relative to control
[10] = test system: Pseudomonas aeruginosa; experiment: Induction of mexY in Pseudomonas aeruginosa 3308 clinical isolate harboring nfxB deltaA122-G131 mutant gene at 0.5 times MIC after 4 hrs relative to control
[11] = test system: Pseudomonas aeruginosa; experiment: Induction of mexY in Pseudomonas aeruginosa 3308 clinical isolate harboring pNF225 at 0.5 times MIC after 4 hrs relative to control

Sequence GENTAMICIN has a fold change (FC) [1] of 15.5, a fold change (FC) [2] of 33.5 and a fold change (FC) [3] of 65.3. The fold change (FC) [4] was 10.6, the fold change (FC) [5] was 16.2 and the fold change (FC) [6] was 56.2. It also gave a fold change (FC) [7] of 19.3, a fold change (FC) [8] of 53.5 and a fold change (FC) [9] of 20.3. For the same sequence, the fold change (FC) [10] was 0.2 and the fold change (FC) [11] was 0.5.
